A mixed list of measured activities; the numbers were collected in NIAID ChemDB.

Shared fields: cytotoxicity tests; cell line: HepG2.2.15; endpoint: CC50

CCn is the concentration with n% toxicity to the cells. Conditions beyond the fields shown may differ between rows. Blank or dashed fields: not listed here.

{"structure": "CC1(C)[C@@H](O)CC[C@]2(C)[C@H]3C(=O)C=C4[C@@H]5C[C@@](C)(C(=O)OCc6cc(C(F)(F)F)cc(C(F)(F)F)c6)CC[C@]5(C)CC[C@@]4(C)[C@]3(C)CC[C@@H]12", "value": ">1700 µM"}
{"structure": "COCC(=O)OC(C)(C)[C@H](OC(C)=O)[C@H](C[C@@H](C)C1=C2C[C@H](OC(C)=O)[C@H]3[C@@]4(C)CCC(=O)C(C)(C)[C@@H]4CC[C@]3(C)[C@@]2(C)CC1)OC(C)=O", "value": ">920 µM"}
{"structure": "CCCCCCCCCCOC(=O)[C@@]1(C)CC[C@]2(C)CC[C@]3(C)C(=CC(=O)[C@@H]4[C@@]5(C)CC[C@H](O)C(C)(C)[C@@H]5CC[C@]43C)[C@@H]2C1", "value": ">1030 µM"}
{"structure": "CCOC(=O)C1=C(CN2CC(F)(F)[C@@H]3[C@H]2CON3CC[C@](C)(OC)C(=O)O)NC(c2nccs2)=N[C@H]1c1cccc(F)c1C", "method": "WST / absorbance", "value": ">100 µM"}
{"structure": "C[C@H](C[C@H](OC(=O)COc1cc(Cl)c(Cl)cc1Cl)[C@@H](OC(=O)COc1cc(Cl)c(Cl)cc1Cl)C(C)(C)OC(=O)COc1cc(Cl)c(Cl)cc1Cl)C1=C2C[C@H](OC(=O)COc3cc(Cl)c(Cl)cc3Cl)[C@H]3[C@@]4(C)CCC(=O)C(C)(C)[C@@H]4CC[C@]3(C)[C@@]2(C)CC1", "value": ">1200 µM"}
{"structure": "COCC(=O)O[C@@H](C[C@@H](C)[C@]12CC[C@@]3(C)[C@@]1(C[C@H](OC(=O)COC)[C@H]1[C@@]4(C)CCC(=O)C(C)(C)[C@@H]4CC[C@@]13C)O2)[C@@H](OC(=O)COC)C(C)(C)O", "value": "1100 µM"}
{"structure": "CCCC(=O)O[C@H]1C[C@@H]2C(=CC[C@@H]3[C@@]2(C)C(=O)C[C@]2(C)C([C@@](C)(O)C(=O)CCC(C)(C)OC(C)=O)[C@H](O)C[C@@]32C)C(C)(C)[C@@H]1O", "value": "12.4 µM"}
{"structure": "CC(=O)O[C@@H](C[C@@H](C)C1=C2C[C@H](OC(C)=O)[C@H]3[C@@]4(C)CCC(=O)C(C)(C)[C@@H]4CC[C@]3(C)[C@@]2(C)CC1)[C@@H](OC(C)=O)C(C)(C)OC(C)=O", "value": "1600 µM"}
{"structure": "C[C@H](Cn1cnc2c(N)ncnc21)OCP(=O)(O)O", "value": ">1740 µM"}
{"structure": "COC(=O)C1=C(CN2CC(F)(F)[C@@H]3[C@H]2CON3CC(F)(F)C(C)(C)C(=O)O)NC(c2nccs2)=N[C@H]1c1ccc(F)c(F)c1C", "method": "WST / absorbance", "value": ">12.5 µM"}
{"structure": "C[C@H](C[C@H](OC(=O)C1CCCCC1)[C@@H](OC(=O)C1CCCCC1)C(C)(C)O)C1=C2C[C@H](OC(=O)C3CCCCC3)[C@H]3[C@@]4(C)CCC(=O)C(C)(C)[C@@H]4CC[C@]3(C)[C@@]2(C)CC1", "value": ">800 µM"}
{"structure": "CC1(C)[C@@H](OC(=O)c2cc(=O)c3ccccc3o2)CC[C@]2(C)[C@H]3CC=C4[C@@H]5C[C@@](C)(C(=O)OCc6ccc(Br)cc6F)CC[C@]5(C)CC[C@@]4(C)[C@]3(C)CC[C@@H]12", "value": ">1080 µM"}
{"structure": "COCC(=O)O[C@@H](C[C@@H](C)[C@]12CC[C@@]3(C)[C@@]1(C[C@H](OC(=O)COC)[C@H]1[C@@]4(C)CCC(=O)C(C)(C)[C@@H]4CC[C@@]13C)O2)[C@@H](OC(=O)COC)C(C)(C)OC(=O)COC", "value": ">800 µM"}
{"structure": "COC(=O)C1=C(CN2CC(F)(F)[C@@H]3[C@H]2CON3CC[C@](C)(O)C(=O)O)NC(c2nccs2)=N[C@H]1c1ccc(F)c(F)c1C", "method": "WST / absorbance", "value": ">100 µM"}
{"structure": "C[C@H](C[C@H](OC(=O)CCC1CCCCC1)[C@@H](OC(=O)CCC1CCCCC1)C(C)(C)OC(=O)CCC1CCCCC1)C1=C2C[C@H](OC(=O)CCC3CCCCC3)[C@H]3[C@@]4(C)CCC(=O)C(C)(C)[C@@H]4CC[C@]3(C)[C@@]2(C)CC1", "value": ">1700 µM"}
{"structure": "CC(C)CCC(=O)O[C@@H](C[C@@H](C)C1=C2C[C@H](OC(=O)CCC(C)C)[C@H]3[C@@]4(C)CCC(=O)C(C)(C)[C@@H]4CC[C@]3(C)[C@@]2(C)CC1)[C@@H](OC(=O)CCC(C)C)C(C)(C)O", "value": ">900 µM"}
{"structure": "CC1(C)[C@@H](OC(=O)c2cc(=O)c3ccccc3o2)CC[C@]2(C)[C@H]3CC=C4[C@@H]5C[C@@](C)(C(=O)OCC(N)=O)CC[C@]5(C)CC[C@@]4(C)[C@]3(C)CC[C@@H]12", "value": ">944 µM"}
{"structure": "CCC(=O)O[C@@H](C[C@@H](C)[C@]12CC[C@@]3(C)[C@@]1(C[C@H](OC(=O)CC)[C@H]1[C@@]4(C)CCC(=O)C(C)(C)[C@@H]4CC[C@@]13C)O2)[C@@H](OC(=O)CC)C(C)(C)OC(=O)CC", "value": ">2200 µM"}
{"structure": "CC1(C)[C@@H](O)CC[C@]2(C)[C@H]3C(=O)C=C4[C@@H]5C[C@@](C)(C(=O)OCc6ccc(C(F)(F)F)cc6)CC[C@]5(C)CC[C@@]4(C)[C@]3(C)CC[C@@H]12", "value": ">1370 µM"}
{"structure": "CCCC(=O)O[C@H]1C[C@H]2[C@]3(C)C(=O)C[C@]4(C)C([C@@](C)(O)C(=O)CCC(C)(C)OC(C)=O)[C@H](OC(=O)CCC)C[C@@]4(C)[C@@H]3C[C@H]3O[C@]32C(C)(C)[C@@H]1OC(=O)CCC", "value": ">617.6 µM"}
{"structure": "CCOC(=O)C1=C(CN2CC(F)(F)[C@H]3[C@@H]2CCN3C[C@](C)(F)C(=O)O)NC(c2nc(C)cs2)=N[C@H]1c1cccc(F)c1C", "method": "WST / absorbance", "value": "23.5 µM"}
{"structure": "C[C@H](C[C@H](OC(=O)c1ccc(Br)cc1)[C@@H](OC(=O)c1ccc(Br)cc1)C(C)(C)O)C1=C2C[C@H](OC(=O)c3ccc(Br)cc3)[C@H]3[C@@]4(C)CCC(=O)C(C)(C)[C@@H]4CC[C@]3(C)[C@@]2(C)CC1", "value": "650 µM"}
{"structure": "COCC(=O)O[C@H]1C[C@H]2[C@]3(C)C(=O)C[C@]4(C)C([C@@](C)(O)C(=O)CCC(C)(C)OC(C)=O)[C@H](OC(=O)COC)C[C@@]4(C)[C@@H]3C[C@H]3O[C@]32C(C)(C)[C@@H]1OC(=O)COC", "value": ">1110 µM"}

Repeating the final 3 entries:

| structure | method | value |
|---|---|---|
| CCOC(=O)C1=C(CN2CC(F)(F)[C@H]3[C@@H]2CCN3C[C@](C)(F)C(=O)O)NC(c2nc(C)cs2)=N[C@H]1c1cccc(F)c1C | WST / absorbance | 23.5 µM |
| C[C@H](C[C@H](OC(=O)c1ccc(Br)cc1)[C@@H](OC(=O)c1ccc(Br)cc1)C(C)(C)O)C1=C2C[C@H](OC(=O)c3ccc(Br)cc3)[C@H]3[C@@]4(C)CCC(=O)C(C)(C)[C@@H]4CC[C@]3(C)[C@@]2(C)CC1 |  | 650 µM |
| COCC(=O)O[C@H]1C[C@H]2[C@]3(C)C(=O)C[C@]4(C)C([C@@](C)(O)C(=O)CCC(C)(C)OC(C)=O)[C@H](OC(=O)COC)C[C@@]4(C)[C@@H]3C[C@H]3O[C@]32C(C)(C)[C@@H]1OC(=O)COC |  | >1110 µM |